Compound potency records, mixed from different reports. Data source: NIAID ChemDB in PubChem.

All rows: whole-cell or culture tests; agent: Human cytomegalovirus; endpoint: EC50

ECn: concentration that inhibits the pathogen or its effect by n%.

C=C[C@@](CO)(CCn1cnc2c(N)ncnc21)c1ccccc1 ; result: >100 µg/mL
CSCCn1ccc(=S)n(Cc2cc(C)cc(C)c2)c1=O ; strain: AD169 ; result: >160 µM
Cc1nc(N2CCC[C@H]2COC(C)C)nc(-n2ccnc2)c1[N+](=O)[O-] ; result: 0.13 µM
[N-]=[N+]=N[C@H]1C[C@H](CO)S[C@@H]1n1ccc(N)nc1=O ; result: <100 µg/mL
N#CCn1c(Cl)cc(=O)[nH]c1=O ; strain: AD169 ; result: >270 µM
Cc1nc(N[C@H]2CCOC[C@@H]2C)nc(-n2ccnc2)c1[N+](=O)[O-] ; result: 0.13 µM
CC1(C)OCC2(COC(O)C2)O1 ; strain: AD169 ; cell line: HFF ; result: >100 µM
Cc1nc(NC2CCc3c(F)ccc(F)c32)nc(-n2ccnc2)c1[N+](=O)[O-] ; result: 0.138 µM
[N-]=[N+]=N[C@@H]1C[C@@H](CO)S[C@H]1n1cnc2c(=O)[nH]cnc21 ; result: <100 µg/mL
O=c1ccn([C@@H]2O[C@H](/C=C/C=C(Br)Br)[C@@H](O)[C@H]2O)c(=O)[nH]1 ; strain: DAVIS ; cell line: HEL ; result: >120 µM
Cc1cn([C@@H]2S[C@H](CO)C[C@H]2N=[N+]=[N-])c(=O)[nH]c1=O ; result: <100 µg/mL
CO[C@@H]1CCCC[C@H]1Nc1nc(C)c([N+](=O)[O-])c(-n2ccnc2C)n1 ; result: 0.7 µM
[N-]=[N+]=N[C@H]1C[C@H](CO)S[C@@H]1n1cnc2c(=O)[nH]cnc21 ; result: <100 µg/mL
O=c1ccn([C@@H]2C[C@](O)(CO)CO2)c(=O)[nH]1 ; strain: AD169 ; cell line: HFF ; result: >100 µM
CCc1nccn1-c1nc(N(C)COC)nc(C)c1[N+](=O)[O-] ; result: 0.8 µM
[N-]=[N+]=N[C@H]1C[C@@H](CO)S[C@H]1n1cnc2c(N)ncnc21 ; result: <100 µg/mL
Cc1cn([C@H]2C[C@](O)(CO)CO2)c(=O)[nH]c1=O ; strain: AD169 ; cell line: HFF ; result: >100 µM
CN[C@H]1C[C@@H](n2cnc3c(N)ncnc32)[C@H](O)[C@@H]1O ; cell line: HFF ; result: 45.1 µg/mL
Cc1cc(C)cc(Cn2c(=O)ccn(CC(c3ccccc3)c3ccccc3)c2=O)c1 ; strain: AD169 ; result: >5 µM
O=c1[nH]c(=O)n(C2C[C@H](CO)[C@@H](CO)C2)cc1I ; strain: AD169 ; cell line: HEL ; result: >100 µg/mL
O=C1O[C@H](CO)C[C@]1(O)CO ; strain: AD169 ; cell line: HFF ; result: >100 µM
Cc1cc(C)cc(Cn2c(=O)ccn(Cc3ccncc3)c2=O)c1 ; strain: AD169 ; result: >160 µM
CC(C)Nc1ncnc2c1ncn2C1C[C@H](CO)[C@@H](CO)C1 ; strain: DAVIS ; cell line: HEL ; result: >100 µg/mL
Nc1nc2c(ncn2[C@@H]2C=C[C@H](CO)[C@@H](O)C2)c(=O)[nH]1 ; strain: DAVIS ; result: 0.83 µg/mL
C=CCn1ccc(=S)n(Cc2cc(C)cc(C)c2)c1=O ; strain: AD169 ; result: 28 µM
[N-]=[N+]=N[C@H]1C[C@@H](CO)S[C@@H]1n1ccc(N)nc1=O ; result: <100 µg/mL
O=c1ccn([C@@H]2C[C@H](CO)C[C@H]2CO)c(=O)[nH]1 ; strain: AD169 ; cell line: HEL ; result: >100 µg/mL
Cc1cn([C@H]2S[C@@H](CO)C[C@@H]2N=[N+]=[N-])c(=O)[nH]c1=O ; result: <100 µg/mL
Cc1cn([C@H]2CC3(CO2)COC(C)(C)O3)c(=O)[nH]c1=O ; strain: AD169 ; cell line: HFF ; result: >100 µM
Cc1cc(C)cc(Cn2c(=S)ccn(Cc3ccoc3)c2=O)c1 ; strain: AD169 ; result: 12 µM

A second listing of 4 rows from above:

C=C[C@@](CO)(CCn1cnc2c(N)ncnc21)c1ccccc1 ; result: >100 µg/mL
Cc1cc(C)cc(Cn2c(=O)ccn(CC(c3ccccc3)c3ccccc3)c2=O)c1 ; strain: AD169 ; result: >5 µM
Cc1nc(NC2CCc3c(F)ccc(F)c32)nc(-n2ccnc2)c1[N+](=O)[O-] ; result: 0.138 µM
Cc1cn([C@@H]2S[C@H](CO)C[C@H]2N=[N+]=[N-])c(=O)[nH]c1=O ; result: <100 µg/mL

Rows are shuffled and stem from different studies.